Pooled drug test results. Numbers come from NIAID ChemDB, via PubChem.

Shared fields: tests on isolated targets; species: HIV-1; target: Reverse transcriptase

Blank or dashed fields: not listed here. Two numbers with a dash give a range or band. ICn is the concentration giving n% inhibition. Conditions beyond the fields shown may differ between rows.

compound | changes | method | strain or isolate | measure | result
Cc1cc(C(=O)O)ccc1NC(=O)CSc1nnc(C(F)F)n1-c1ccc(C)c2c1CCCC2 |  | nucleotide incorporation / radiometric |  | IC50 | <0.05 µM
CC(C)(C#Cc1ccc(NC(=O)CSc2nnnn2-c2ccc(C(C)(C)C)cc2Cl)c(Cl)c1)OCC(=O)O | RT-K103 Y181C | PicoGreen / fluorescence |  | IC50 | <1 µM
CCN1c2ncc(CCOc3ccc(-c4ncccn4)cc3)cc2C(=O)N(C)c2cccnc21 | RT-K103N Y181C | nucleotide incorporation / radiometric | IIIB | IC50 | >0.1 µM
Cc1cc(S(N)(=O)=O)ccc1NC(=O)CSc1nnc(Br)n1-c1ccc(F)c2ccccc12 |  | nucleotide incorporation / radiometric |  | IC50 | <0.05 µM
COC(=O)NS(=O)(=O)c1ccc(NC(=O)CSc2nnnn2-c2ccc(C3CC3)cc2Cl)c(Cl)c1 |  | PicoGreen / fluorescence | WT | IC50 | <1 µM
CC(C)c1ccc(-n2c(SCC(=O)Nc3ccc(S(N)(=O)=O)cc3Cl)nnc2C(F)F)c2ccccc12 | RT-Y188L | nucleotide incorporation / radiometric |  | IC50 | >0.1 µM
CC(C)(C)c1ccc(-n2nnnc2SCC(=O)Nc2ccc(NC(=O)NCc3ccccc3)cc2Cl)c(Cl)c1 | RT-K103 Y181C | PicoGreen / fluorescence |  | IC50 | <1 µM
CCN1c2ncc(CCOc3ccc(/C=C(\C)C(=O)O)c4ccccc34)cc2C(=O)Nc2c(C)ccnc21 | RT-K103N Y181C | nucleotide incorporation / radiometric |  | IC50 | 0.1–1 µM
CCN1c2ncc(CCOc3ccc(-c4c[n+]([O-])ccc4C)cc3C)cc2C(=O)N(C)c2cccnc21 | RT-K103N Y181C | nucleotide incorporation / radiometric | IIIB | IC50 | <0.05 µM
CCOC(=O)C(C)NS(=O)(=O)c1ccc(NC(=O)CSc2nnc(C(F)F)n2-c2ccc(C)c3c2CCCC3)c(Cl)c1 | RT-Y181C | nucleotide incorporation / radiometric |  | IC50 | >0.1 µM
COc1ccc2c(C3CC3)ccc(-n3c(Br)nnc3SCC(=O)Nc3ccc(C(=O)O)cc3Cl)c2c1 |  | nucleotide incorporation / radiometric |  | IC50 | <0.05 µM
CCN1c2ncc(CCOc3ccc(-c4ccc(CC(=O)O)cc4Cl)cc3C)cc2C(=O)N(C)c2cccnc21 | RT-K103N Y181C | nucleotide incorporation / radiometric | IIIB | IC50 | <0.05 µM
Cc1cc(S(N)(=O)=O)ccc1NC(=O)CSc1nnc(CF)n1-c1c(C)cc(C)c2ccccc12 | RT-Y188L | nucleotide incorporation / radiometric |  | IC50 | >0.1 µM
CC(C)(C)c1ccc(-n2nnnc2SCC(=O)Nc2ccc(NC(=O)Nc3ccc(C(=O)O)cc3)cc2Cl)c(Cl)c1 |  | PicoGreen / fluorescence | WT | IC50 | <1 µM
Cc1cc(S(N)(=O)=O)ccc1NC(=O)CSc1nnc(C)n1-c1ccc(C)c2c1CCCC2 | RT-Y181C | nucleotide incorporation / radiometric |  | IC50 | >0.1 µM
CC(C)(C)c1ccc(-n2nnnc2SCC(=O)Nc2ccc(C(=O)Nc3ccccc3O)cc2Cl)c(Cl)c1 |  | PicoGreen / fluorescence | WT | IC50 | <1 µM
Cc1nnc2c3ccccc3c(N3CCc4cccnc4C3)nn12 |  | RT activity / fluorescence | KER2008 | IC90 | 2.82 µM
CC(C)[C@H](NC(=O)c1ccc(NC(=O)CSc2nnc(Br)n2-c2ccc(C3CC3)c3ccccc23)c(Cl)c1)C(=O)O | RT-Y181C | nucleotide incorporation / radiometric |  | IC50 | <0.05 µM
CCN1c2ncc(CCOc3ccc(C(=O)O)c4c3CCN(S(C)(=O)=O)C4)cc2C(=O)N(C)c2cccnc21 | RT-Y188L | nucleotide incorporation / radiometric |  | IC50 | 0.1–1 µM
CCc1ccc(-n2c(CF)nnc2SCC(=O)Nc2ccc(S(=O)(=O)NC)cc2Cl)c2ccccc12 |  | nucleotide incorporation / radiometric |  | IC50 | 0.05–0.1 µM
CC(C)(C#Cc1ccc(NC(=O)CSc2nnnn2-c2cc(C(F)(F)F)ccc2Cl)c(Cl)c1F)OCCOc1ccncc1 | RT-K103 Y181C | PicoGreen / fluorescence |  | IC50 | <1 µM
O=C(CSc1nnc(Br)n1-c1ccc(C2CC2)cc1Cl)Nc1ccc(C(=O)O)cc1Cl |  | nucleotide incorporation / radiometric |  | IC50 | <0.05 µM
CC(C)=CCN1Cc2cccc3[nH]c(=S)n(c23)C[C@@H]1C | RT-Y188L | nucleotide incorporation |  | IC50 | >330 µM
CC(C)(C)c1ccc(-n2nnnc2SCC(=O)Nc2ccc(NC(=O)c3ccc(O)cc3)cc2Cl)c(Cl)c1 | RT-K103 Y181C | PicoGreen / fluorescence |  | IC50 | <1 µM
CCc1ccc(-n2c(Br)nnc2SCC(=O)Nc2ccc(C(=O)NCCN(C)C)cc2Cl)c2ccccc12 | RT-Y181C | nucleotide incorporation / radiometric |  | IC50 | <0.05 µM
O=C(COc1ccc(NC(=O)CSc2nnnn2-c2ccc(C3CC3)cc2Cl)c(Cl)c1)NCCc1cc[n+]([O-])cc1 |  | PicoGreen / fluorescence | WT | IC50 | <1 µM
COC(=O)[C@H](CC(C)C)NC(=O)c1ccc(NC(=O)CSc2nnc(Br)n2-c2ccc(C3CC3)c3ccccc23)c(Cl)c1 |  | nucleotide incorporation / radiometric |  | IC50 | <0.05 µM
Nc1cc2c(cc1F)CN(c1nn3c(C4CC4)nnc3c3ccccc13)CC2 |  | RT activity / fluorescence | IIIB | IC50 | 0.28 µM
Cc1cc(S(N)(=O)=O)ccc1NC(=O)CSc1nnc(CF)n1-c1ccc(C)c2c1CCCC2 | RT-Y181C | nucleotide incorporation / radiometric |  | IC50 | >0.1 µM
CC(C)(C#Cc1ccc(NC(=O)CSc2nnnn2-c2ccc(C3CC3)cc2Cl)c(Cl)c1F)OCCOc1ccc[n+]([O-])c1 |  | PicoGreen / fluorescence | WT | IC50 | <1 µM
CCc1ccc(-n2c(Br)nnc2SCC(=O)Nc2ccc(C(=O)NCCCCO)cc2Cl)c2ccccc12 |  | nucleotide incorporation / radiometric |  | IC50 | <0.05 µM
CCN1c2ncc(CCOc3ccc(C(=O)NC(C)(C)CC(=O)O)cc3C)cc2C(=O)N(C)c2cccnc21 |  | nucleotide incorporation / radiometric | IIIB | IC50 | <0.05 µM
N#Cc1cccc2c(-n3c(SCC(=O)Nc4ccc(S(N)(=O)=O)cc4Cl)nnc3C(F)F)cccc12 |  | nucleotide incorporation / radiometric |  | IC50 | 0.05–0.1 µM
O=C(CSc1nnnn1-c1ccc(C2CC2)cc1Cl)Nc1ccc(C#CC2(CN3CCC(O)CC3)CC2)cc1Cl |  | PicoGreen / fluorescence | WT | IC50 | <1 µM
CCN1c2ncc(CCOc3ccc(C(=O)O)c4c3CCN(S(=O)(=O)N(C)C)C4)cc2C(=O)N(C)c2cccnc21 | RT-K103N Y181C | nucleotide incorporation / radiometric |  | IC50 | <0.1 µM
CCc1ccc(-n2c(SCC(=O)Nc3ccc(C(=O)O)cc3C)nnc2C(F)F)c2ccccc12 | RT-Y188L | nucleotide incorporation / radiometric |  | IC50 | >0.1 µM
Cc1ccc(-n2nnnc2SCC(=O)Nc2ccc(-c3cscn3)cc2Cl)c(Cl)c1 | RT-K103 Y181C | PicoGreen / fluorescence |  | IC50 | <1 µM
O=C(CSc1nnc(C(F)F)n1-c1ccc(C2CC2)c2ccccc12)Nc1ccc(C(=O)O)cc1Cl | RT-Y181C | nucleotide incorporation / radiometric |  | IC50 | <0.05 µM
CC(NC(=O)COC(C)(C)C#Cc1ccc(NC(=O)CSc2nnnn2-c2ccc(C(C)(C)C)cc2Cl)c(Cl)c1)C(=O)O | RT-K103 Y181C | PicoGreen / fluorescence |  | IC50 | <1 µM
Cc1cc(C2CC2)c2ccccc2c1-n1c(Br)nnc1SCC(=O)Nc1ccc(S(=O)(=O)O)cc1Cl | RT-Y188L | nucleotide incorporation / radiometric |  | IC50 | 0.05–0.1 µM
CCN1c2ncc(CCOc3cccc4c3ccc[n+]4[O-])cc2C(=O)Nc2c(C)cc(Cl)nc21 | RT-K103N Y181C | nucleotide incorporation / radiometric |  | IC50 | 0.091 µM
CCN1c2ncc(CCOc3ccc(CC(=O)NN)c4ccccc34)cc2C(=O)N(C)c2cccnc21 | RT-Y188L | nucleotide incorporation / radiometric |  | IC50 | 0.1–1 µM
CCc1ccc(-n2c(Br)nnc2SCC(=O)Nc2ccc(C(=O)O)cc2Cl)c2ccccc12 |  | nucleotide incorporation / radiometric |  | IC50 | <0.05 µM
NS(=O)(=O)c1ccc(NC(=O)CSc2nnc(C(F)F)n2-c2ccc(C3CCC3)c3ccccc23)c(Cl)c1 | RT-Y181C | nucleotide incorporation / radiometric |  | IC50 | <0.05 µM
CCN1c2ncc(CCOc3ccc(/C=C(\C)C(=O)O)c4ccccc34)cc2C(=O)N(C)c2ccc(C)nc21 |  | nucleotide incorporation / radiometric | WT | IC50 | <0.1 µM
Cc1ccc(-n2nccc2OCC(=O)Nc2ccc(-c3ccc(CC(=O)O)cc3)cc2Cl)c(Cl)c1 |  | PicoGreen / fluorescence | WT | IC50 | <1 µM
CC(C)C[C@H](NC(=O)c1ccc(NC(=O)CSc2nnc(Br)n2-c2ccc(C3CC3)c3ccccc23)c(Cl)c1)C(=O)O |  | nucleotide incorporation / radiometric |  | IC50 | <0.05 µM
CC(C)[C@H](NC(=O)c1ccc(NC(=O)CSc2nnc(Br)n2-c2ccc(C3CC3)c3ccccc23)c(Cl)c1)C(=O)O | RT-Y181C | nucleotide incorporation / radiometric |  | IC50 | <0.05 µM
CC(C)(C#Cc1ccc(NC(=O)CSc2nnnn2-c2cc(C(C)(C)C)cc(Br)c2Cl)c(Cl)c1)NC(=O)c1cc[n+]([O-])cc1 |  | PicoGreen / fluorescence | WT | IC50 | <1 µM
c1ccc2c(c1)CCN(c1nn3c(C4CC4)nnc3c3ccccc13)C2 |  | RT activity / fluorescence | KER2008 | IC90 | 5.64 µM
O=C(CSc1nnc(Br)n1-c1ccc(C2CC2)cc1C(F)(F)F)Nc1ccc(C(=O)O)cc1Cl | RT-Y188L | nucleotide incorporation / radiometric |  | IC50 | >0.1 µM
CCN1c2ncc(CCOc3ccc(-c4cccnc4C)cc3C)cc2C(=O)N(C)c2cccnc21 | RT-K103N Y181C | nucleotide incorporation / radiometric | IIIB | IC50 | <0.05 µM
O=C(CSc1nnnn1-c1ccc(C2CC2)cc1Cl)Nc1ccc(C#CC2(CO)CC2)cc1Cl |  | PicoGreen / fluorescence | WT | IC50 | <1 µM
CCN1c2ncccc2NC(=O)c2cc(CCOc3ccc(-c4ccc[n+]([O-])c4)cc3C)cnc21 |  | nucleotide incorporation / radiometric | IIIB | IC50 | <0.05 µM
Cc1ccc(-n2c(SCC(=O)Nc3ccc(C(=O)O)cc3Cl)nnc2C(F)F)c2c1CCCC2 | RT-Y188L | nucleotide incorporation / radiometric |  | IC50 | >0.1 µM
Cc1nnc(SCC(=O)Nc2ccc(-c3ccc(OCCN4CCCCC4)cc3)cc2Cl)n1-c1ccc(C2CC2)cc1Cl | RT-K103 Y181C | PicoGreen / fluorescence |  | IC50 | <1 µM
CCN1c2ncc(CCOc3ccc(-c4ccc(CC(=O)O)cc4[N+](=O)[O-])cc3C)cc2C(=O)N(C)c2cccnc21 | RT-K103N Y181C | nucleotide incorporation / radiometric | IIIB | IC50 | 0.05–0.1 µM
C[C@H](CC(=O)O)C(=O)NC(C)(C)C#Cc1ccc(NC(=O)CSc2nnnn2-c2ccc(C3CC3)cc2Cl)c(Cl)c1 |  | PicoGreen / fluorescence | WT | IC50 | <1 µM
COc1cc2c(cc1[N+](=O)[O-])CN(c1nn3c(C4CC4)nnc3c3ccccc13)CC2 |  | RT activity / fluorescence | IIIB | IC90 | 78.8 µM
CC(C)(C#Cc1ccc(NC(=O)CSc2nnnn2-c2cc(F)ccc2Cl)c(Cl)c1)C(=O)O |  | PicoGreen / fluorescence | WT | IC50 | <1 µM
CCN1c2ncc(CCOc3ccc(CC(=O)O)c4c3CCCC4)cc2C(=O)N(C)c2cccnc21 | RT-V106A | nucleotide incorporation / radiometric |  | IC50 | >1 µM
CC(C)(C#Cc1ccc(NC(=O)CSc2nnnn2-c2ccc(C(C)(C)C)cc2Cl)c(Cl)c1)OCC(=O)N1CCCC1 | RT-K103 Y181C | PicoGreen / fluorescence |  | IC50 | <1 µM
CCN1c2ncc(CCOc3ccc(-c4csc(C(=O)O)c4)cc3C)cc2C(=O)N(C)c2cccnc21 | RT-K103N Y181C | nucleotide incorporation / radiometric | IIIB | IC50 | <0.05 µM
CC(C)(C(=O)O)c1ccc(-c2ccc(NC(=O)CSc3nnnn3-c3ccc(C4CC4)cc3Cl)c(Cl)c2)cc1 |  | PicoGreen / fluorescence | WT | IC50 | <1 µM
CCCCNC(=O)c1ccc(NC(=O)CSc2nnc(Br)n2-c2ccc(CC)c3ccccc23)c(Cl)c1 |  | nucleotide incorporation / radiometric |  | IC50 | 0.05–0.1 µM

For reference, 7 entries again:

compound	changes	method	strain or isolate	measure	result
COC(=O)[C@H](CC(C)C)NC(=O)c1ccc(NC(=O)CSc2nnc(Br)n2-c2ccc(C3CC3)c3ccccc23)c(Cl)c1		nucleotide incorporation / radiometric		IC50	<0.05 µM
NS(=O)(=O)c1ccc(NC(=O)CSc2nnc(C(F)F)n2-c2ccc(C3CCC3)c3ccccc23)c(Cl)c1	RT-Y181C	nucleotide incorporation / radiometric		IC50	<0.05 µM
Cc1cc(C2CC2)c2ccccc2c1-n1c(Br)nnc1SCC(=O)Nc1ccc(S(=O)(=O)O)cc1Cl	RT-Y188L	nucleotide incorporation / radiometric		IC50	0.05–0.1 µM
CCc1ccc(-n2c(Br)nnc2SCC(=O)Nc2ccc(C(=O)NCCCCO)cc2Cl)c2ccccc12		nucleotide incorporation / radiometric		IC50	<0.05 µM
CC(C)(C)c1ccc(-n2nnnc2SCC(=O)Nc2ccc(NC(=O)NCc3ccccc3)cc2Cl)c(Cl)c1	RT-K103 Y181C	PicoGreen / fluorescence		IC50	<1 µM
Cc1nnc2c3ccccc3c(N3CCc4cccnc4C3)nn12		RT activity / fluorescence	KER2008	IC90	2.82 µM
Cc1cc(S(N)(=O)=O)ccc1NC(=O)CSc1nnc(CF)n1-c1ccc(C)c2c1CCCC2	RT-Y181C	nucleotide incorporation / radiometric		IC50	>0.1 µM